Measured data: PubChem BioAssay AID624099 (ICCB-Longwood, 2012)
The whole screen tested about 21,000 reagents; below is a part drawn at random. 497 of all reagents (2.4%) count as active. 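Higher z means weaker E2 silencing; only reporter increases were scored, and knock-downs that hurt cell survival may mask genuine repressor factors.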 Entries without a mark were called inactive. The numbers tell different reagents against one gene apart. Reagent sequences are not shown.

Assay: 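Host factors E2 relies on to silence an HPV18 LCR reporter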 (primary screen)
Cells: human C33A cervical carcinoma cells (HPV-negative) stably expressing BPV1 E2 and an HPV18 LCR luciferase reporter
Reagent: siRNA pool against human genes, 40 nM
Time to read-out: 72 h
Measurement: 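HPV18 LCR reporter light per well, converted to plate-wise z-scores that exclude control wells, and averaged over triplicate plates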
Scale: mean z-score and z-score: higher = stronger reporter signal, weaker E2 silencing
Call rule: 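Hit if mean z-score reaches 2 and two or more of three replicate z-scores also reach 2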

mean z-score,"z-score, replicate A","z-score, replicate B","z-score, replicate C",gene knocked down,pool no.
0.31,0.34,0.22,0.37,FOXD4L1,1
-0.55,-0.47,-0.72,-0.47,LINC00518,1
0.91,1.48,0.63,0.62,MILR1,1
-0.53,-0.41,-0.85,-0.34,OR10H1,1
-1.7,-1.7,-1.83,-1.56,RPS15A,1
-0.64,-0.77,-0.75,-0.41,NBPF3,1
0.85,0.88,0.61,1.04,PTH1R,1
0.99,0.86,0.92,1.18,FECH,1
1.57,1.64,1.34,1.71,TRAF4,1
-1.78,-1.45,-1.75,-2.16,NIPSNAP1,1
-0.58,-0.41,-0.58,-0.77,ABCB9,1
0,-0.02,-0.06,0.08,IMPA1,1
0.21,0.58,0.13,-0.09,DPYD,1
2.35 (active),2.21,1.85,2.98,LOC100133284,1
-0.46,-0.11,-0.95,-0.33,BTBD16,1
0.45,0.37,0.4,0.57,CD80,1
0.06,0.41,-0.59,0.35,ZNF471,1
1.03,1.2,0.94,0.96,TREX1,1
-0.64,-0.66,-0.65,-0.61,TMED1,1
-2.51,-2.2,-2.77,-2.58,RPL24,1
0.89,0.74,1.08,0.84,WRNIP1,1
-0.44,-0.74,0,-0.59,PUS1,1
-0.55,-0.4,-0.74,-0.51,LOC402388 (retired record),1
0.61,0.67,0.56,0.59,FOXD4L3,1
1.63,1.51,1.8,1.58,FOXD4L3,2
-0.79,-1.14,-0.86,-0.38,SNX29P1,1
0.64,0.53,1,0.38,TAF11,1
0.14,0.16,0.27,-0.03,CNGA4,1
0.69,0.7,0.37,1,C5orf22,1
1.19,0.82,1.64,1.12,ACOT13,1
0.44,0.31,0.34,0.66,RYR3,1
0.75,0.71,0.69,0.87,DHRS4L2,1
1.2,0.74,1.56,1.29,B4GALT6,1
0.03,0.05,0.02,0.03,CRH,1
0.35,0.34,0.16,0.57,SH3TC2,1
0.12,0.26,0.02,0.07,FAM230B,1
-0.28,-0.3,-0.32,-0.2,WDR81,1
0.87,0.65,1.34,0.63,CPSF2,1
-0.36,-0.26,-0.67,-0.17,LINC02898,1

Quoted from the entries so far (6 entries):
mean z-score,"z-score, replicate A","z-score, replicate B","z-score, replicate C",gene knocked down,pool no.
0.61,0.67,0.56,0.59,FOXD4L3,1
1.63,1.51,1.8,1.58,FOXD4L3,2
-0.79,-1.14,-0.86,-0.38,SNX29P1,1
0.64,0.53,1,0.38,TAF11,1
0.14,0.16,0.27,-0.03,CNGA4,1
0.69,0.7,0.37,1,C5orf22,1
